Pooled drug test results. Numbers come from NIAID ChemDB, via PubChem.

Shared fields: host cell toxicity; measure: CC50

An empty or dashed field is not shown.

compound,method,cells,value
COC(=O)c1ccc(NC(=S)Nc2ccc(S(=O)(=O)Nc3cc(C)on3)cc2)cc1,MTT,CEM174,>100 µM
CC1COc2c(N3CCN(C(c4ccccc4)c4ccc(Cl)cc4)CC3)c(F)c([N+](=O)[O-])c3c(=O)c(C(=O)O)cn1c23,MTT,Mammalian Vero cells,105 µM
Cc1cc(NS(=O)(=O)c2ccc(NC(=S)Nc3ccccc3F)cc2)no1,MTT,CEM174,>100 µM
COc1ccc(Cc2cc(C3CCN(C(=O)c4ccc5ncoc5c4)CC3)nc(N)n2)cc1,,Jurkat cells (PMA-stimulated),>5 µM
Cc1cc(NS(=O)(=O)c2ccc(NC(=S)NCc3ccc(F)cc3)cc2)no1,MTT,CEM174,>100 µM
COc1ccc(C2C(C(=O)/C=C/c3ccc4c(c3)OCO4)=C(/C=C/c3ccc4c(c3)OCO4)N=C3SC=C(C)N32)cc1,resazurin,C1008 (Vero cells),418 µg/mL
CCc1n[nH]c(=S)n1N,MTT,Fibroblast L929,>100 µg/mL
N#Cc1nc2c(-c3nc4ccccc4[nH]3)c(N)n(CCCN3CCOCC3)c2nc1C#N,resazurin / fluorescence,L6 rat skeletal myoblasts,3 µM
Cc1ccc2nc(Nc3cccc(Cl)c3)sc2c1,MTS,Ava5,80 µM
CC(C)(C)C(=O)OCn1nc([C@@H]2O[C@H](CO)C[C@H]2O)c2ncnc(N)c21,,PRK/E6SM,200 µg/mL
Cc1cccc(Nc2nc3ccc(C)cc3s2)c1,MTS,Ava5,160 µM
Cc1cn([C@H]2C[C@H](F)[C@@H](CO)O2)c(=O)[nH]c1=O,MTT,MAGI,>100 µg/mL
CC(=O)Nc1cccc(-c2ccc3ncnc(Nc4ccc(N5CCOCC5)cc4)c3c2)c1,,HUH 9B,>25 µM
CC1COc2c(N3CCN(Cc4ccc5c(c4)OCO5)CC3)c(F)c([N+](=O)[O-])c3c(=O)c(C(=O)O)cn1c23,MTT,Mammalian Vero cells,119 µM
Cc1cc2c(O[C@H]3O[C@H](CO)[C@@H](O)[C@H]3O)ccc(O)c2c(=O)o1,MTT,SW-480,>40 µg/mL
Nc1nccc2c1ncn2[C@@H]1O[C@H](CSCCC(N)C(=O)O)C[C@H]1O,,PRK/E6SM,400 µg/mL
Cc1cc(NS(=O)(=O)c2ccc(NC(=S)Nc3ccccn3)cc2)no1,MTT,CEM174,>100 µM
C[C@@H]1C[C@@H](O)c2c(O[C@H]3O[C@H](CO)[C@@H](O)[C@H]3O)cccc2O1,MTT,HL-60,>40 µg/mL
COc1ccc(CCn2c(N)c(-c3nc4ccccc4n3C)c3nc(C#N)c(C#N)nc32)cc1,resazurin / fluorescence,L6 rat skeletal myoblasts,188 µM
CC1=CSC2=NC(/C=C/c3ccc(OCc4ccccc4)cc3)=C(C(=O)/C=C/c3ccc(OCc4ccccc4)cc3)C(c3ccc(Cl)cc3)N12,resazurin,C1008 (Vero cells),>500 µg/mL
CCOC(=O)CN1N=C(c2cccc(NC(=O)Nc3ccc(Cl)cc3C)c2)C(C)(C)C1=O,,NHDF,19.2 µM
COc1ccc(Cc2cc(C3CCN(C(=O)c4ccc5c(c4)OCCO5)CC3)nc(N)n2)cc1,,Jurkat cells (PMA-stimulated),>5 µM
O=C(CN(c1cc(C(F)(F)F)ccc1Cl)S(=O)(=O)c1ccccc1)NCc1ccncc1,absorbance,HepDE19,>50 µM
CCOC(=O)c1cccc(NC(=O)c2ccc3ncnc(Nc4ccc(N5CCOCC5)cc4)c3c2)c1,,HUH 9B,>25 µM
COc1ccc(Cc2cc(C3CCN(C(=O)c4ccc5[nH]ccc5c4)CC3)nc(N)n2)cc1,,Jurkat cells (PMA-stimulated),>5 µM
COc1ccc(Cn2c(N)c(-c3nc4ccccc4[nH]3)c3nc(C#N)c(C#N)nc32)cc1OC,resazurin / fluorescence,L6 rat skeletal myoblasts,100 µM
Cc1cc(Cl)ccc1NC(=O)Nc1cccc(-c2n[nH]c(=O)n2C(C)c2ccccc2)c1,,NHDF,21 µM
COc1ccccc1NC(=S)Nc1ccc(S(=O)(=O)Nc2cc(C)on2)cc1,MTT,CEM174,>100 µM
CC1=CSC2=NC(/C=C/c3cccc(Cl)c3)=C(C(=O)/C=C/c3cccc(Cl)c3)C(c3ccccc3)N12,resazurin,C1008 (Vero cells),286 µg/mL
COc1ccc(Cc2cc(C3CCN(C(=O)c4ccc5ocnc5c4)CC3)nc(N)n2)cc1,,Jurkat cells (PMA-stimulated),>5 µM
CC1=CSC2=NC(/C=C/c3ccc(F)cc3)=C(C(=O)/C=C/c3ccc(F)cc3)C(c3ccccc3)N12,resazurin,C1008 (Vero cells),306 µg/mL
CCCOC(=O)C(CCSC[C@H]1O[C@@H](n2ccc3c(N)ncnc32)[C@H](O)[C@@H]1O)NC(C)=O,,PRK/E6SM,400 µg/mL
Cc1cc(Cl)ccc1NC(=O)Nc1cc(Br)cc(C2=NNC(=O)C2(C)C)c1,,NHDF,>14 µM
N#Cc1nc2c(-c3nc4ccccc4[nH]3)c(N)n(CCc3ccc(Cl)cc3)c2nc1C#N,resazurin / fluorescence,L6 rat skeletal myoblasts,40 µM
C[C@H]1COc2c(N3CCC(O)(c4ccc(Cl)cc4)CC3)c(F)c([N+](=O)[O-])c3c(=O)c(C(=O)O)cn1c23,MTT,Mammalian Vero cells,60.35 µM
COc1ccc(Nc2nc3ccc(C)cc3s2)c(OC)c1OC,MTS,Ava5,200 µM
COc1ccc(-c2cc(C3CCN(C(=O)c4ccc5c(c4)OCO5)CC3)nc(N)n2)cc1,,Jurkat cells (PMA-stimulated),1.9 µM
O=C(Nc1cccc(Cl)c1)Nc1cccc(-c2n[nH]c(=O)n2C2CCCCC2)c1,,NHDF,31 µM
CCCOC(=O)c1ccc(NC(=S)Nc2ccc(S(=O)(=O)Nc3cc(C)on3)cc2)cc1,MTT,CEM174,>100 µM
O=C(NCCc1ccc2c(n1)NCCC2)Nc1ccccc1Oc1ccccc1,,PBMC,8.2 µM
COc1ccc(C2C(C(=O)/C=C/c3cccs3)=C(/C=C/c3cccs3)N=C3SC=C(C)N32)cc1,resazurin,C1008 (Vero cells),235 µg/mL
C[C@H]1COc2c(N3CCC4(CC3)OCCO4)c(F)cc3c(=O)c(C(=O)O)cn1c23,MTT,Mammalian Vero cells,155 µM
Cc1cc(Cl)ccc1NC(=O)Nc1cccc(C2=NNC(=O)C2(C)C)c1,,NHDF,>5 µM
O=C(NCCc1ccc2c(n1)NCCC2)Nc1cccnc1Oc1ccccc1,,PBMC,50 µM
Cc1ccc2nc(Nc3cccc([N+](=O)[O-])c3)sc2c1,MTS,Ava5,303 µM
O=C(NCCc1ccc2c(n1)NCCC2)NCc1ccc(Cl)cc1,,PBMC,50 µM
Nc1ncnc2c1CCN2[C@@H]1O[C@H](CSCCC(N)C(=O)O)C[C@H]1O,,PRK/E6SM,200 µg/mL
Cc1ccc2nc(Nc3cc(O)cc(C(=O)O)c3)sc2c1,MTS,Ava5,400 µM
COc1cc2ncnc(Nc3ccc(N4CCOCC4)cc3)c2cc1OC,,HUH 9B,>25 µM
COc1ccc(/C=C/C(=O)C2=C(/C=C/c3ccc(OC)cc3)N=C3SC=C(C)N3C2c2ccccc2)cc1,resazurin,C1008 (Vero cells),358 µg/mL
Cc1cc(NS(=O)(=O)c2ccc(NC(=S)Nc3ccc(Br)cc3)cc2)no1,MTT,CEM174,>100 µM
CC1=CSC2=NC(/C=C/c3ccc(Br)cc3)=C(C(=O)/C=C/c3ccc(Br)cc3)C(c3ccc(Cl)cc3)N12,resazurin,C1008 (Vero cells),420 µg/mL
CC(=O)Nc1cccc(CCNC(=O)NCc2ccc(Cl)c(Cl)c2)n1,,PBMC,50 µM
Nc1ncnc2c([C@@H]3O[C@H](CSCCC(N)C(=O)O)C[C@H]3O)[nH]nc12,,PRK/E6SM,40 µg/mL
CC(C)CCn1c(N)c(-c2nc3ccccc3[nH]2)c2nc(C#N)c(C#N)nc21,resazurin / fluorescence,L6 rat skeletal myoblasts,85 µM
O=C(/C=C/c1ccc(O)c(O)c1)O[C@@H]1CC(O)(C(=O)O)C[C@@H](OC(=O)/C=C/c2ccc(O)c(O)c2)C1O,,HEP-2,>100 µg/mL
Cc1ccccc1-c1ccc2ncnc(Nc3ccc(N4CCOCC4)cc3)c2c1,,HUH 9B,>25 µM
O=S(=O)(NCCc1ccc2c(n1)NCCC2)c1ccc(Oc2ccccc2)cc1,,PBMC,50 µM
Cc1cccc(NC(=S)Nc2ccc(S(=O)(=O)Nc3cc(C)on3)cc2)c1,MTT,CEM174,>100 µM
N#Cc1nc2c(-c3nc4ccccc4s3)c(N)n(CCCn3ccnc3)c2nc1C#N,resazurin / fluorescence,L6 rat skeletal myoblasts,18 µM
CC(C)CCN(c1ccc(N2CCOCC2)cc1)c1ncnc2ccc(-c3cccs3)cc12,,HUH 9B,10–25 µM
COc1ccc(Cc2cc(C3CCN(C(=O)c4ccc5c(c4)OCO5)CC3)ncn2)cc1,,Jurkat cells (PMA-stimulated),0.5 µM
Nc1ncnc2c([C@H]3C[C@H](O)[C@@H](CO)O3)[nH]nc12,,PRK/E6SM,>400 µg/mL
Cc1cc(NS(=O)(=O)c2ccc(NC(=S)Nc3ccc4ccccc4c3)cc2)no1,MTT,CEM174,>100 µM
N#Cc1nc2c(-c3nc4ccccc4[nH]3)c(N)n(Cc3ccc(O)c(O)c3)c2nc1C#N,resazurin / fluorescence,L6 rat skeletal myoblasts,22 µM
CC1COc2c(N3CCc4ccccc4C3C(=O)NC(C)(C)C)c(F)c([N+](=O)[O-])c3c(=O)c(C(=O)O)cn1c23,MTT,Mammalian Vero cells,116 µM
COc1cc(/C=C/C(=O)C2=C(/C=C/c3cc(OC)c(OC)c(OC)c3)N=C3SC=C(C)N3C2c2cc(OC)c(OC)c(OC)c2)cc(OC)c1OC,resazurin,C1008 (Vero cells),167 µg/mL
CC(C)(C)OC(=O)Nc1cccc(-c2ccc3ncnc(Nc4ccc(N5CCOCC5)cc4)c3c2)c1,,HUH 9B,>25 µM

For reference, 9 entries again:

O=C(CN(c1cc(C(F)(F)F)ccc1Cl)S(=O)(=O)c1ccccc1)NCc1ccncc1 ; method: absorbance ; cells: HepDE19 ; value: >50 µM
CC1=CSC2=NC(/C=C/c3ccc(Br)cc3)=C(C(=O)/C=C/c3ccc(Br)cc3)C(c3ccc(Cl)cc3)N12 ; method: resazurin ; cells: C1008 (Vero cells) ; value: 420 µg/mL
COc1ccc(Cc2cc(C3CCN(C(=O)c4ccc5ncoc5c4)CC3)nc(N)n2)cc1 ; cells: Jurkat cells (PMA-stimulated) ; value: >5 µM
COC(=O)c1ccc(NC(=S)Nc2ccc(S(=O)(=O)Nc3cc(C)on3)cc2)cc1 ; method: MTT ; cells: CEM174 ; value: >100 µM
Nc1nccc2c1ncn2[C@@H]1O[C@H](CSCCC(N)C(=O)O)C[C@H]1O ; cells: PRK/E6SM ; value: 400 µg/mL
O=C(NCCc1ccc2c(n1)NCCC2)Nc1ccccc1Oc1ccccc1 ; cells: PBMC ; value: 8.2 µM
Cc1cc(NS(=O)(=O)c2ccc(NC(=S)NCc3ccc(F)cc3)cc2)no1 ; method: MTT ; cells: CEM174 ; value: >100 µM
CCOC(=O)CN1N=C(c2cccc(NC(=O)Nc3ccc(Cl)cc3C)c2)C(C)(C)C1=O ; cells: NHDF ; value: 19.2 µM
Cc1cc(Cl)ccc1NC(=O)Nc1cc(Br)cc(C2=NNC(=O)C2(C)C)c1 ; cells: NHDF ; value: >14 µM

Rows are shuffled and stem from different studies. a–b is a range or a potency band. CCn: concentration that lowers growth or viability of the cells by n%.